Assay results published in paper PMC4207539 (Journal of Medicinal Chemistry, 2014).

Test system: VEEV TrD strain
Assay type: cell-based, Venezuelan equine encephalitis virus

CCN1CCN(Cc2nc3ccc([N+](=O)[O-])cc3c(=O)n2-c2ccccc2F)CC1 [compound 1, 2-((4-Ethylpiperazin-1-yl)methyl)-3-(2-fluorophenyl)-6-nitroquinazolin-4(3H)-one]
titer reduction, TrD strain: no measurable viral replication
